Data: publication PMC12299477 (Viruses, 2025)

How the values were obtained:
HCoV-OC43 = assay: Virus inhibition assay (focus reduction), HCoV-OC43 on MRC-5 cells; format: cell-based, human coronavirus; settings: CC50/EC50; HCoV-OC43, MRC-5 cells
RSV-A2 = assay: Virus inhibition assay (plaque reduction), RSV-A2 on Hep-2 cells; format: cell-based, respiratory syncytial virus; settings: CC50/EC50; RSV-A2, Hep-2 cells
IFV-A H1N1 = assay: Virus inhibition assay (focus reduction), IFV-A H1N1 on MDCK cells; format: cell-based, influenza virus; settings: CC50/EC50
HCoV-229E = assay: Virus inhibition assay, HCoV-229E on MRC-5 cells; format: cell-based, human coronavirus

Row | Structure (SMILES) | SI (HCoV-OC43) | also measured
1 | O=C(N[C@@H](Cc1ccc(O)cc1)C(=O)O)c1cc(-c2ccc(Cl)cc2)c(=O)n2c1sc1ccc(OC3CCCCC3)cc12 [Compound 9] | 46.4 | –
2 | O=C(N[C@@H](Cc1ccc(O)cc1)C(=O)O)c1cc(-c2ccc(F)cc2)c(=O)n2c1sc1ccc(OC3CCCCC3)cc12 [Compound 14] | 57.1 | –
3 | NS(=O)(=O)c1ccc(OC(=O)c2cc(-c3ccccc3)c(=O)n3c2sc2ccc(OC4CCCCC4)cc23)cc1 [Compound 23] | 79.1 | –
4 | O=C(N[C@@H](Cc1ccc(O)cc1)C(=O)O)c1cc(-c2cccc(F)c2)c(=O)n2c1sc1ccc(OC3CCCCC3)cc12 [Compound 16] | 20.1 | SI (RSV-A2): 3.91
5 | NC(=O)c1ncn([C@@H]2O[C@H](CO)[C@@H](O)[C@H]2O)n1 [ribavirin, reference compound] | – | SI (RSV-A2): >64.9
6 | O=C(O)CCNC(=O)c1cc(-c2ccccc2)c(=O)n2c1sc1ccc(OC3CCCCC3)cc12 [Compound 10] | >25.1 | –
7 | O=C(N[C@@H](Cc1ccc(O)cc1)C(=O)O)c1ccc(=O)n2c1sc1ccc(OC3CCCCC3)cc12 [Compound 27] | 18.9 | –
8 | CCOC(=O)C1=C[C@@H](OC(CC)CC)[C@H](NC(C)=O)[C@@H](N)C1 [oseltamivir, reference compound] | – | SI (IFV-A H1N1): >1176
9 | COc1ccc(-c2cc(C(=O)N[C@@H](Cc3ccc(O)cc3)C(=O)O)c3sc4ccc(OC5CCCCC5)cc4n3c2=O)cc1F [Compound 2] | 17.8 | –
10 | CC(C)(CC(=O)O)NC(=O)c1cc(-c2ccccc2)c(=O)n2c1sc1ccc(OC3CCCCC3)cc12 [Compound 1] | 12.3 | SI (IFV-A H1N1): 7.49; EC50 value of HCoV-229E compared to HCoV-OC43 (fold higher) (HCoV-229E): ~ 10 fold; SI (HCoV-229E; CC50/EC50, HCoV 229E): 1.32; SI (RSV-A2): 47.2
11 | O=C(N[C@@H](Cc1ccc(O)cc1)C(=O)O)c1cc(-c2cccs2)c(=O)n2c1sc1ccc(OC3CCCCC3)cc12 [Compound 25] | 57.0 | SI (IFV-A H1N1): 6.28
